Our source for the inhibition values is ChEMBL document CHEMBL5154878, “Potent Inhibition of SARS-CoV-2 nsp14 N7-Methyltransferase by Sulfonamide-Based Bisubstrate Analogues” (J Med Chem, 2022).

This assay has as its target Replicase polyprotein 1ab (Severe acute respiratory syndrome coronavirus 2) (UniProt P0DTD1). The experiment in a line: Inhibition of N7-MTase activity of SARS-CoV-2 N-terminus hexahistidine tag nsp14 expressed in Escherichia coli C2566 at 5 uM using [3H]SAM as substrate incubated for 30 mins in presence of mGpppAC4 synthetic RNA by filter binding assay relative to control.

For `Nc1ncnc2c1ncn2[C@@H]1O[C@H](C[C@@H](N)CC[C@H](N)C(=O)O)[C@@H](O)[C@H]1O`, the inhibition (commonly how much of the control response was suppressed) was found to be 100%.
